Measured values from several laboratories, pooled; numbers as filed in NIAID ChemDB.

Shared fields: growth or infection tests; organism: HIV-1; endpoint: fold resistance

Fold resistance has wild type as its base. Blank or dashed fields: not listed here. Neighbouring rows are from separate reports.

Cc1ccccc1Cc1cccc(C(=O)CC(=O)C(=O)O)c1 ; changes: INTG-T66I S153Y ; read by: p24 ; value: 6
Cc1occc1C(=S)Nc1ccc(Cl)c(/C=N/OC(C)(C)C)c1 ; strain: UC781-RS(RT-Y181C ; changes: RT-Y181C ; value: 4.5
Cc1cc(S(N)(=O)=O)ccc1NC(=O)COc1ccccc1C(=O)c1cc(Cl)cc(C#N)c1 ; strain: HXB2 (RT V106I E138K P236L) Recombinant ; changes: RT-V106I E138K P236L ; value: 175
Nc1nc2c(ncn2[C@H]2CO[C@@H](CO)O2)c(=O)[nH]1 ; strain: Clinical isolate ; changes: RT-K103N M184V ; value: ~0.455
CCN(c1ncccc1NC(C)(C)C)C1CCN(C(=O)c2cc3cc(NS(C)(=O)=O)ccc3[nH]2)CC1 ; strain: IIIB ; changes: RT-T139I ; read by: p24 ; value: 2.02
Cc1cn([C@@H]2O[C@H](CO[Si](C)(C)C(C)(C)C)[C@@]3(OS(=O)(=O)C=C3N)[C@H]2O[Si](C)(C)C(C)(C)C)c(=O)[nH]c1=O ; strain: UC781-RS(RT-Y181C ; changes: RT-Y181C ; value: >200
Cc1ccnc2c1NC(=O)c1cccnc1N2C1CC1 ; strain: NL4-3 ; changes: DS-resistant ; value: 0.333
NC(=O)[C@H](Nc1ccccc1[N+](=O)[O-])c1c(Cl)cccc1Cl ; strain: AZT-resistant (RT I135T Q207E T215F K219Q) ; changes: RT-I135T Q207E T215F K219Q ; read by: p24 ; value: 5.62
CC=CCOc1cc(NC(=S)c2ccoc2C)ccc1OC ; strain: UC781-RS(RT-Y181C ; changes: RT-Y181C ; value: 2.67
CC(C)(C)C(=O)c1sc(C(=O)NCCc2ccccc2)c(O)c1O ; changes: INTG-T66I S153Y ; value: 1
c1cc(CN2CCCNCCNCCCNCC2)ccc1CN1CCCNCCNCCCNCC1 ; strain: NL4-3 ; changes: AMD3100-resistant ; value: 21.7
CCN(c1nc(F)ccc1NC(C)(C)C)C1CCN(C(=O)c2cc3cc(NC(=O)N4CCN(C)CC4)ccc3[nH]2)CC1 ; strain: IIIB ; changes: LPV-P31 lopinavir-resistant mutant ; value: 39.6
O=C(NCc1ccc(F)cc1)c1nc(N2CCCCS2(=O)=O)c2cccnc2c1O ; changes: INTG-N155S ; read by: p24 ; value: 9
Nc1ccn([C@H]2CC[C@@H](CO)O2)c(=O)n1 ; strain: HIVRTMC (RT D67N K70R L74V T215F K219Q) ; changes: RT-D67N K70R L74V T215F K219Q ; read by: plaque count ; value: 14.3
C#C[C@]1(CO)O[C@@H](n2cnc3c(N)nc(F)nc32)C[C@@H]1O ; changes: RT-M184V ; value: 15.5
CC(C)(C)OC(=O)N[C@@H](Cc1ccccc1)[C@H](O)CNC[C@@H](O)[C@H](Cc1ccc(OCC(=O)N2CCOCC2)cc1)NC(=O)OC(C)(C)C ; strain: BMS-186318-resistant (PR A71T V82A) ; changes: PR-A71T V82A ; value: 32.1
Cc1cn([C@H]2C[C@H](N=[N+]=[N-])[C@@H](CO)O2)c(=O)[nH]c1=O ; strain: NL4-3 ; changes: AMD3100-resistant ; value: 0.000245
CC(C)c1c(COC(N)=O)cn(Cc2ccncc2)c1Sc1cc(Cl)cc(Cl)c1 ; changes: RT-K103N ; read by: cytopathic effect / MTT ; value: <100
CCOCn1c(Cc2ccccc2)c(C(C)C)c(=O)[nH]c1=O ; strain: HXB2 ; changes: RT-Y181C ; read by: cytopathic effect / MTT ; value: 380
CC(C)(C)NC(=O)[C@@H]1CN(C(C)(C)c2cc3cnccc3o2)CCN1C[C@@H](O)C[C@@H](Cc1ccccc1)C(=O)N[C@H]1c2ccccc2C[C@H]1O ; strain: K-60C (PR L10I S37N M46I I54V Q58E L63P I64V V77I V82F L90M I93L) ; changes: PR-L10I S37N M46I I54V Q58E L63P I64V V77I V82F L90M I93L ; value: >66.7
CC(C)(C)C(=O)c1sc(C(=O)NCc2ccccc2)c(O)c1O ; changes: INTG-S153Y ; value: 2
Fc1cccc(F)c1C1SCc2nc3ccccc3n21 ; strain: IIIB ; changes: RT-Y181C ; read by: cytopathic effect / MTT ; value: 9.9
CC(C)(C)NC(=O)[C@@H]1CN(Cc2cccnc2)CCN1C[C@@H](O)C[C@@H](Cc1ccccc1)C(=O)N[C@H]1c2ccccc2C[C@H]1O ; strain: CGP 61755-resistant (PR V32I M46I L63P I84A) ; changes: PR-V32I M46I L63P I84A ; read by: RT activity ; conditions: 10 d ; value: 27
CC(C)=CCN1Cc2cccc3[nH]c(=O)n(c23)CC1C ; strain: UC781-RS(RT-Y181C ; changes: RT-Y181C ; value: 118
Nc1nc2c(ncn2[C@H]2CO[C@@H](CO)O2)c(=O)[nH]1 ; strain: RT-65R 116Y 151M ; changes: RT-K65R F116Y Q151M ; value: 39
O=C1Nc2ccc(Cl)cc2[C@@](C#CC2CC2)(C(F)(F)F)N1 ; changes: RT-K103N ; value: 5

A second listing of 2 rows from above:

compound	strain	changes	read by	conditions	value
O=C(NCc1ccc(F)cc1)c1nc(N2CCCCS2(=O)=O)c2cccnc2c1O	-	INTG-N155S	p24	-	9
CCOCn1c(Cc2ccccc2)c(C(C)C)c(=O)[nH]c1=O	HXB2	RT-Y181C	cytopathic effect / MTT	-	380